From patent US8008251B2, “Macrocyclic inhibitors of hepatitis C virus” (Tibotec Pharmaceuticals Ltd., priority 2005, dated 2011)

By UniProt entry, the sequences of proteins in these tests, tags left out. Where a name states a change or a piece, a line headed by the entry shows the natural chain unless it says otherwise. Residues count along the entry.
UniProt P27958, 1027-1657 limits assumed: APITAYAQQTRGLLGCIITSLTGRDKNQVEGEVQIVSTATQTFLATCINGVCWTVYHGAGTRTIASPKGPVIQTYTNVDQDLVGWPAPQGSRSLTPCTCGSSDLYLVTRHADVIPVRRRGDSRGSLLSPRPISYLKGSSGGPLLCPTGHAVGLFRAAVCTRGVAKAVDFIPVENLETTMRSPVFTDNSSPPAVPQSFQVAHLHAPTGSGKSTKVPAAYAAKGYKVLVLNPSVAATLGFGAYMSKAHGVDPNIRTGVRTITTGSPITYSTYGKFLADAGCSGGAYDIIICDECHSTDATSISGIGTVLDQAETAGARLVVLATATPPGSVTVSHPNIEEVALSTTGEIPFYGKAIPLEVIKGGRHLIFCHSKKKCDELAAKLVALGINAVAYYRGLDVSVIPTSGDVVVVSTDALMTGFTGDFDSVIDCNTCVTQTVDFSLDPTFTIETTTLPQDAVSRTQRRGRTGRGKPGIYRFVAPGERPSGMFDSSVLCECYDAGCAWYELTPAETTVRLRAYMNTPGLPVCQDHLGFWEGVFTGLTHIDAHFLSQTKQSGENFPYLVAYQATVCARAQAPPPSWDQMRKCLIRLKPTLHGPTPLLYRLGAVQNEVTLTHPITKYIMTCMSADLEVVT

Tests used:
[1] = In vitro metabolic blocking by ritonavir in human liver microsomes; format: in vitro ADME; details: human liver microsomes 1 mg/ml
[2] = molecular target: full-length hepatitis C NS3 protease enzyme with NS4A cofactor (HCV NS3/4A protease) (Hepatitis C virus genotype 1a, UniProt P27958); experiment: Enzymatic inhibition assay of HCV NS3/4A protease; details: read-out: Ki (nM) Enzymatic assay; 1 nM enzyme, 25 μM NS4A cofactor, 0.5 μM substrate, competitive inhibition model
[3] = system: HCV replicons (NS3-NS5B regions of HCV type 1b) in Huh-7 luc/neo cells; experiment: HCV replicon assay (Huh-Luc, luciferase readout); format: cell-based; details: read-out: EC50 (μM) Replicon assay, three days incubation, luciferase activity

Question: Which “% Detected Compound, 30′, ritonavir” value ([1]; 3 μM test compound + 10 μM ritonavir, 30 min) does the source give for `COc1ccc2c(O[C@@H]3C[C@H]4C(=O)N[C@]5(C(=O)NS(=O)(=O)C6CC6)C[C@H]5/C=C\CCCCN(C)C(=O)N4C3)cc(-c3nc(C(C)C)cs3)nc2c1` here?
Answer: Its value is 93%.

Question: What about the “% Detected Compound, 120′, ritonavir” value ([1]; 3 μM test compound + 10 μM ritonavir, 120 min) of the same compound?
Answer: Its value is 102%.

Question: What about the “% Detected Compound, 30′, No Booster” value ([1]; 3 μM test compound, 30 min, no ritonavir) of the same compound?
Answer: The value was 71%.

Question: And the “% Detected Compound, 120′, No Booster” value ([1]; 3 μM test compound, 120 min, no ritonavir)?
Answer: Its value is 20%.

Question: And the Ki [2]?
Answer: The Ki was 0.45 nM.

Question: What about the EC50 [3] of the same compound?
Answer: The EC50 was 0.055 µM.
